Biological target: CD46
Assay: cell-based or functional assay

unmodified measles virus hemagglutinin H (from UniProt P08362 1-617)
Nuclei/syncytium, BxPC-3 (nuclei per syncytium): 100
Nuclei/syncytium, Vero (nuclei per syncytium): > 100
Nuclei/syncytium, Vero-His (nuclei per syncytium): > 100

— patent US20110142811A1
